Reference: article PMC9718554, “Discovery of a fragment hit compound targeting D-Ala:D-Ala ligase of bacterial peptidoglycan biosynthesis” (Journal of Enzyme Inhibition and Medicinal Chemistry, 2022)

How the values were obtained:
[1] = Thiol reactivity assay (reduced DTNB, TNB2- depletion); conditions: 100 μM compound, 37 °C, 12 h
[2] = H2DCFDA redox activity assay (ROS); conditions: for H2DCFDA assay activity flag: 100 μM compound, with or without 100 μM TCEP
[3] = HRP-PR redox activity assay (H2O2); conditions: for HRP-PR assay activity flag: 100 μM compound, with or without 1 mM DTT
[4] = Resazurin redox activity assay (free radicals); conditions: for Resazurin assay activity flag: with 100 μM DTT
[5] = Phosphate-binding assay (malachite green, no enzyme); conditions: at 5 mM

| SMILES | Thiol reactivity [1] | H2DCFDA assay fluorescence relative to DMSO blank ([2]; 100 µM TCEP) | H2DCFDA assay activity flag [2] | H2DCFDA assay fluorescence relative to DMSO blank ([2]; Redox-free) | HRP-PR assay activity flag [3] | HRP-PR assay absorbance relative to DMSO blank ([3]; 1 mM DTT) | HRP-PR assay absorbance relative to DMSO blank ([3]; Redox-free) | Resazurin assay fluorescence relative to DMSO blank ([4]; 1 µM cpd) | Resazurin assay fluorescence relative to DMSO blank ([4]; 10 µM cpd) | Resazurin assay activity flag [4] | Phosphate binding, free phosphate [5] [% free phosphate at 5 mM] |
| --- | --- | --- | --- | --- | --- | --- | --- | --- | --- | --- | --- |
| COc1ccc(-n2c(C)ccc2C)nc1 [Compound 4] | Reactive | 1.9 | Active | 3.4 | Not active | 1.0 | 0.8 | 1.1 | 2.3 | Active | 29 |
| COCc1cn(C2CNC2)nn1 [Compound 8] | Not reactive | 10.6 | Active | 8.0 | Not active | 1.0 | 0.8 | 0.9 | 0.9 | Not active | 85 |
| Cc1noc(C)c1C(=O)NCC1Cn2cccc2CN1C (stereo not drawn) [Compound 5] | Not reactive | 2.4 | Active | 3.9 | Not active | 1.0 | 0.9 | 1.0 | 1.1 | Not active | 10 |
| CCOc1ccc2c(n1)CCN(C(=O)c1ccccn1)C2 [Compound 6, (2-Ethoxy-7,8-dihydro-1,6-naphthyridin-6(5H)-yl)(pyridin-2-yl)methanone] | Not reactive | 1.1 | Not active | 1.3 | Not active | 1.0 | 0.9 | 1.3 | 4.3 | Active | 23 |
| Cc1cccc(-c2ccnc3c(C(=O)O)cnn23)c1 [Compound 3, 7-(m-Tolyl)pyrazolo[1,5-a]pyrimidine-3-carboxylic acid] | Not reactive | 1.0 | Not active | 1.1 | Not active | 1.0 | 1.1 | 1.1 | 1.0 | Not active | 111 |
| Nc1ccc2ncc(C(=O)O)c(O)c2c1 [Compound 7, 6-Amino-4-hydroxyquinoline-3-carboxylic acid] | Not reactive | 2.1 | Not active | 1.4 | Not active | 1.0 | 0.9 | 1.0 | 1.1 | Not active | 89 |
